Anti-infective test results gathered from many reports (values: NIAID ChemDB through PubChem).

Common to all: target-level tests; protein: CCR5; endpoint: IC50

Rows are shuffled and stem from different studies. ICn is the concentration giving n% inhibition.

compound | read by | result
CN(C[C@@H](CCN1CCC2(CC1)CS(=O)c1ccccc12)c1ccc(Cl)c(Cl)c1)S(=O)(=O)c1cccs1 | radioligand binding / binding | 0.066 µM
Cc1ccnc(C)c1C(=O)N1CCC(C)(N2CCN([C@@H](C)c3ccc(C(F)(F)F)cc3)[C@@H](C)C2)CC1 | fluorescence | >0.1 µM
c1ccc(-c2cccc(NCc3ccc(CN4CCCNCCNCCCNCC4)cc3)c2)cc1 | fluorescence | <10 µM
CCCCOCCOc1ccc(-c2ccc3c(c2)C=C(C(=O)Nc2ccc(CS(=O)c4ccccn4)cc2)CCN3CCC)cc1 | radiometric | 0.25 µM
CN(C[C@@H](CCN1CCC2(CC1)CS(=O)c1ccccc12)c1ccc(Cl)c(Cl)c1)C(=O)OC(C)(C)C | radioligand binding / binding | >1 µM
CCN(C(=O)Cc1ccc(S(C)(=O)=O)cc1)C1CCN(CC[C@H](NC(=O)C2CCN(C(=O)C(C)C)CC2)c2ccccc2)CC1 | fluorescence | <50 µM
CCCCOCCOc1ccc(-c2ccc3c(c2)C=C(C(=O)Nc2ccc(S(=O)Cc4nccn4CC(C)C)cc2)CCN3CC(C)C)cc1 | radiometric | 0.0087 µM
CCCCCOCCOc1ccc(-c2ccc3c(c2)C=C(C(=O)Nc2ccc(CN(C)C4CCOCC4)cc2)CCS3(=O)=O)cc1 | radiometric | 0.72 µM
CCN(C(=O)Cc1ccc(S(C)(=O)=O)cc1)C1CCN(CC[C@H](NC(=O)C2CCN(S(=O)(=O)c3ccc(F)cc3)CC2)c2ccccc2)CC1 | fluorescence | <50 µM
CCCCOCCOc1ccc(-c2ccc3c(c2)C=C(C(=O)Nc2ccc(S(=O)Cc4ccncc4)cc2)CCN3CC(C)C)cc1 | radiometric | 0.16 µM
CCN(C(=O)Cc1ccc(S(C)(=O)=O)cc1)C1CCN(CC[C@H](NC(=O)C2CCN(S(=O)(=O)c3ccc(S(C)(=O)=O)cc3)CC2)c2ccccc2)CC1 | fluorescence | <50 µM
O=C(NC[C@@H](CCN1CCC2(CC1)CS(=O)(=O)c1ccccc12)c1ccc(Cl)c(Cl)c1)c1ccccc1 | radioligand binding / binding | >0.1 µM
CCOCCOc1ccc(-c2ccc3c(c2)C=C(C(=O)Nc2ccc(CN(C)C4CCOCC4)cc2)CCS3(=O)=O)cc1 | radiometric | 0.034 µM
CCN(C(=O)Cc1ccc(S(C)(=O)=O)cc1)C1CCN(CC[C@H](NC(=O)C2CCN(S(=O)(=O)C(C)C)CC2)c2ccccc2)CC1 | fluorescence | <50 µM
CCCCOCCOc1ccc(-c2ccc3c(c2)C=C(C(=O)Nc2ccc(CN(C)C4CCOCC4)cc2)CCN3CC2CCC2)cc1 | radiometric | 0.012 µM
CCN(C(=O)Cc1ccc(S(C)(=O)=O)cc1)C1CCN(CC[C@H](NC(=O)OCC(C)C)c2ccccc2)CC1 | fluorescence | <50 µM
CN(C[C@H](CCN1CCC2(CC1)CS(=O)c1ccccc12)c1ccc(Cl)c(Cl)c1)S(=O)(=O)c1ccccc1 | radioligand binding / binding | 0.87 µM
CC(C)c1ccc(-c2ccc3c(c2)C=C(C(=O)Nc2ccc(CN(C)C4CCOCC4)cc2)CCS3(=O)=O)cc1 | radiometric | 0.12 µM
c1ccc(N2CCCCC2)c(NCc2ccc(CN3CCCNCCNCCCNCC3)cc2)c1 | fluorescence | <10 µM
CCN(C(=O)Cc1ccc(S(C)(=O)=O)cc1)C1CCN(CC[C@H](NC(=O)C2CCN(C(=O)c3ccccc3)CC2)c2ccccc2)CC1 | fluorescence | <50 µM
CCCCOCCOc1ccc(-c2ccc3c(c2)C=C(C(=O)Nc2ccc(CN(C)C4CCOCC4)cc2)CCN3CC2CC2)cc1 | radiometric | 0.0045 µM

The first 2 rows once more:

compound	read by	result
CN(C[C@@H](CCN1CCC2(CC1)CS(=O)c1ccccc12)c1ccc(Cl)c(Cl)c1)S(=O)(=O)c1cccs1	radioligand binding / binding	0.066 µM
Cc1ccnc(C)c1C(=O)N1CCC(C)(N2CCN([C@@H](C)c3ccc(C(F)(F)F)cc3)[C@@H](C)C2)CC1	fluorescence	>0.1 µM